# Source: PubChem BioAssay AID504761 (Drosophila RNAi Screening Center, 2011)
# Aim: 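Insect host genes that dengue virus relies on to spread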 (primary screen)
# Cells: D.Mel-2 cells from Drosophila
# Reagent: long dsRNA against Drosophila genes
# Conditions: infection with dengue virus type 2; dose and infection time not stated
# Read-out: 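Per well on two replicate plates, imaging gave the percent of cells positive for viral envelope protein, ranked by infection, and a nuclear count of cells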
# Direction: infection score: higher = more virus-infected cells; cell count: higher = more cells in the well
# Call rule: 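Very low infection ranking in both replicate wells (chance probability at most 0.065), then a retest showing infection dropped 1.5-fold or more at p below 0.05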
# Meaning of the calls: active = confirmed: knock-down lowers infection; inactive = not picked or not confirmed
# In all, the deposit lists about 22,000 reagents; this is an unselected part of those that have a named target and a result. Over the whole deposit, 116 (0.52%) got an active call. 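Calls depend on retest data that are not deposited; infection was ranked per plate without normalising between plates; the unit of the infection score is not given.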 Raw values vary from plate to plate and are shown uncorrected. Reagents against one gene are numbered here. Not given: the amount of reagent, the time to read-out.
gene,reagent no.,"infection score, replicate 1","infection score, replicate 2","cell count, replicate 1","cell count, replicate 2",activity call
CG12645,1,5.06,12,6739,6180,inactive
CG12645,2,2.38,4.7,6429,6408,inactive
Dgk,1,1.91,0.34,6073,5805,inactive
Dgk,2,1.44,4.69,6118,5796,inactive
Dgk,3,15.2,23,5895,4289,inactive
Dgk,4,1.59,7.98,6395,6476,inactive
Dgk,5,3.57,7.54,6355,5888,inactive
dsf,1,2.9,8.15,6336,1631,inactive
dsf,2,3.77,6.49,6665,6412,inactive
mthl9,1,0.73,0.68,5895,6476,inactive
Pfrx,1,9.48,3.22,6012,5990,inactive
Pfrx,2,4.22,4.38,5853,5987,inactive
Pfrx,3,20.9,7.09,5755,3328,inactive
Bruce,1,6.13,1.47,7485,7136,inactive
spict,1,17.9,10.7,6210,6513,inactive
spict,2,18,3.07,6462,6668,inactive
CG17192,1,4.32,4.59,6176,6400,inactive
CG17192,2,4.83,6.11,6210,5405,inactive

Reprinted from the entries so far (4 entries):
gene,reagent no.,"infection score, replicate 1","infection score, replicate 2","cell count, replicate 1","cell count, replicate 2",activity call
Pfrx,1,9.48,3.22,6012,5990,inactive
Pfrx,2,4.22,4.38,5853,5987,inactive
Pfrx,3,20.9,7.09,5755,3328,inactive
Bruce,1,6.13,1.47,7485,7136,inactive

The listing continues.
gene,reagent no.,"infection score, replicate 1","infection score, replicate 2","cell count, replicate 1","cell count, replicate 2",activity call
Adk2,1,7.55,5.35,6883,6730,inactive
Ho,1,8.98,5.87,6369,6320,inactive
PpV,1,6.65,7.49,5235,4341,inactive
PpV,2,8.71,13.4,5256,6155,inactive
PpV,3,17.1,8.69,3776,3995,inactive
Sirt2,1,10.8,3.31,4764,6766,inactive
Sirt2,2,9.52,12,6804,6179,inactive
CG32354,1,2.53,2.28,6789,6745,inactive
CG32354,2,19.5,2.49,3545,724,inactive
CG32354,3,2.48,2.26,6379,6383,inactive
CG9016,1,1.03,3.07,6533,6474,inactive
CG9016,2,4.12,3.33,6913,6344,inactive
tkv,1,5.02,12.4,5977,5429,inactive
tkv,2,5.82,8.63,6339,6270,inactive
tkv,3,1.51,0.65,5912,6630,inactive
Vmat,1,13.4,15.3,6228,6092,inactive
Vmat,2,12,32,6314,5637,inactive
Vmat,3,2.92,4.89,6611,5892,inactive
Tpt,1,0.72,2.48,6346,6403,inactive
mei-P26,1,4.28,2.87,6150,6406,inactive
CG15144,1,1.62,2.76,6188,6691,inactive
CG15144,2,9.28,4.75,6314,6271,inactive
